The results in this text go back to publication PMC10060530, “Molecular determinants of μ-conotoxin KIIIA interaction with the human voltage-gated sodium channel NaV1.7” (2023).

This experiment addresses human voltage-gated sodium channel NaV1.7 (human). Description: whole-cell voltage clamp (kinetics of block of Na+ current).

Broadly, the Kd is the constant that tells how readily two partners part at equilibrium. Low values mean a tighter complex, high ones a looser complex. The term koff denotes the rate constant with which the complex falls apart. A low value points to slow dissociation. One may read the kon as the rate constant with which the complex forms. Low readings indicate slower complex formation, high ones faster complex formation.

As for “μ-Conotoxin KIIIA (from UniProt P0C195 5-22) (peptide)”, the Kd came out at 59 nM, the koff was found to be 5e-05 s⁻¹ and the kon came to 900 M⁻¹ s⁻¹.
